Key:
[1] = biological target: S1(327-510)-Ig (SARS-CoV (Tor2 isolate); human) (UniProt P59594); experiment: radioimmunoprecipitation with 80R scFv beads, normalized to Protein A
[2] = biological target: S1-Ig (SARS-CoV (Tor2 isolate); human) (UniProt P59594); experiment: SPR (BIAcore 3000), S1-Ig amine-coupled to CM5 chip
[3] = biological target: S1-C9 (SARS-CoV (Tor2 isolate)) (UniProt P59594); experiment: phage ELISA, S1-C9 coated 0.2 µg per well

80R scFv showed a percent of the amount that Protein A precipitated [1] of 5%, a Ka [2] of 3.1e+07 M⁻¹ and a Kd [2] of 0.0323 µM. The koff [2] was 0.00836 s⁻¹, the kon [2] was 229000 M⁻¹ s⁻¹ and the A450 [3] was over 1 A450.
